Measured data: PubChem BioAssay AID1259414 (Drosophila RNAi Screening Center, 2018)

- Test: 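Host factors increasing or decreasing Wolbachia levels in cultured fly cells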 (primary screen)
- Cells: Drosophila JW18 cells infected with Wolbachia
- Knock-down reagent: long dsRNA against Drosophila genes, 0.25 µg dsRNA per well of a 384-well plate
- Duration: 5 days
- Conditions: cells persistently infected with Wolbachia before knock-down; no added drug
- Read-out: 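Automated imaging of bacterial rRNA staining divided by host cell count, reported as plate-normalised robust z-score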
- Scale: Wolbachia per cell robust z: higher = more Wolbachia per host cell than the plate typical
- Call rule: 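Hit when robust z is 1.5 or more, or -1.5 or less, in at least two of three replicates; excludes dsRNAs with several or no targets, genes not expressed in JW18 and well A1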
The screen tested about 24,000 reagents; this is a random part of those with a known target gene and a result. Of all reagents, about 1,210 (5%) got an active call. 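Inactive calls also include excluded dsRNAs with several or no targets, genes unexpressed in JW18, and well A1, regardless of score.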

target gene | DRSC id | Wolbachia per cell robust z, rep 1 | Wolbachia per cell robust z, rep 2 | Wolbachia per cell robust z, rep 3 | Outcome
CG10996 | DRSC19363 | -2.84 | 0.978 | -2.25 | active
bru2 | DRSC01246 | -0.095 | 0.246 | -0.495 | inactive
bru2 | DRSC01247 | -1.29 | -2.29 | -4.55 | inactive
bru2 | DRSC01249 | 0.0122 | 0.262 | 0.076 | inactive
bru2 | DRSC25003 | -0.16 | -0.016 | -0.398 | inactive
CG10298 | DRSC12522 | -4.46 | -0.0894 | -0.0157 | inactive
CG10298 | DRSC25489 | -1.62 | -6.41 | -0.287 | active
angel | DRSC04670 | 0.118 | -0.565 | -1.68 | inactive
angel | DRSC21326 | -0.0258 | -1.2 | 0.0391 | inactive
CG34175 | DRSC00424 | -1.49 | -0.45 | -0.971 | inactive
CG34175 | DRSC41480 | -1.58 | -1.83 | 0.496 | inactive
SRPK | DRSC07090 | 0.608 | -0.0847 | -0.00898 | inactive
SRPK | DRSC28162 | 1.21 | 1.09 | 0.0466 | inactive
CG7329 | DRSC03046 | 0.304 | -0.00453 | 0.885 | inactive
CG7329 | DRSC26137 | -0.0902 | 1.07 | -0.82 | inactive
Nepl15 | DRSC15630 | -0.779 | -12.6 | 0.4 | inactive
RpL17 | DRSC18293 | 5.52 | 3.32 | 2.83 | active
RpL17 | DRSC29971 | 3.62 | 1.94 | 4.26 | active
ppk10 | DRSC38920 | -0.707 | -1.71 | -1.16 | inactive
CG8089 | DRSC07074 | -3.58 | 0.494 | -1.88 | active
CG8757 | DRSC11039 | -2.07 | -1.92 | -1.26 | inactive
CG8757 | DRSC24587 | -5.46 | -0.338 | -0.434 | inactive
Caper | DRSC02137 | 1.83 | 0.516 | 0.596 | inactive
AlkB | DRSC19115 | 1.19 | -0.135 | -2 | inactive
PsGEF | DRSC18596 | -1.52 | -0.456 | 0.108 | inactive
PsGEF | DRSC18600 | -0.188 | -0.561 | -1.41 | inactive
PsGEF | DRSC27549 | -0.419 | -0.771 | 0.0156 | inactive
CG13196 | DRSC06321 | 0.178 | -1.67 | 0.286 | inactive

Active calls (from the list above):
target gene | DRSC id | Wolbachia per cell robust z, rep 1 | Wolbachia per cell robust z, rep 2 | Wolbachia per cell robust z, rep 3 | Outcome
CG10996 | DRSC19363 | -2.84 | 0.978 | -2.25 | active
CG10298 | DRSC25489 | -1.62 | -6.41 | -0.287 | active
RpL17 | DRSC18293 | 5.52 | 3.32 | 2.83 | active
RpL17 | DRSC29971 | 3.62 | 1.94 | 4.26 | active
CG8089 | DRSC07074 | -3.58 | 0.494 | -1.88 | active
